tested on: pp28-luciferase HCMV Towne strain; type: cell-based, Human Cytomegalovirus (HCMV); details: pp28-luc HCMV in HFFs; mean ± SD
Experimental: The pp28-luciferase HCMV Towne strain was constructed as previously described (14). This virus expresses luciferase under the control of the late CMV gene promoter, pp28. Luciferase expression is strongly activated 48-72 hours post infection (hpi). […] A GCV-resistant HCMV strain was obtained from a patient with CMV disease. […] Human herpes virus strains were: luciferase HSV1-KOS/Dlux/oriS (15) and clinical isolates of HSV1 and HSV2. All clinical isolates were provided by the clinical virology laboratory with no identifiers that can link to a specific subject. The Johns Hopkins Office of Human Subject Research Institutional Review Board determined that this research qualified for an exemption.
Human Foreskin Fibroblasts (HFFs) passage 12-16 (ATCC, CRL-2088™) were grown in Dulbecco's Modified Eagle Medium (DMEM) containing 10% fetal bovine serum (FBS) (Gibco, Carlsbad, Calif.) in a 5% CO2 incubator at 37° C. and used for infection with HCMV or HSV at multiplicity of infection of 1 PFU/cell (MOI=1) unless otherwise specified. Following 90 minute adsorption (60 min for HSV), media was removed and cells were washed with PBS. DMEM with 4% FBS containing compounds was added to each well. For HCMV, infected, treated HFFs were collected at 72 hpi and lysates were assayed for luciferase activity using a luciferase assay kit (Promega, Madison, Wis.) on GloMax®-Multi+ Detection System (Promega) according to manufacturer's instructions.

With `CC[C@@H](C(=O)[C@@H](C)[C@@H](O)[C@H](C)[C@@H]1O[C@@H]([C@@H](CC)C(=O)O)CC[C@@H]1C)[C@H]1O[C@]2(C=C[C@@H](O)[C@]3(CC[C@@](C)([C@H]4CC[C@](O)(CC)[C@H](C)O4)O3)O2)[C@H](C)C[C@@H]1C` [Salinomycin, salinomycin] as the molecule, how does the “slope of the dose response curve” value read?
The value was 1.4 ± 0.16.

With `Nc1nc(O)c2ncn(COC(CO)CO)c2n1` [GCV, ganciclovir] as the molecule, how does the “slope of the dose response curve” value read?
Its value is 1.3 ± 0.06.

Which “slope of the dose response curve” value does the source give for `CC[C@@]1([C@@H]2O[C@@H]([C@H]3O[C@@](O)(CO)[C@H](C)C[C@@H]3C)C[C@@H]2C)CC[C@H]([C@]2(C)CC[C@]3(C[C@H](O)[C@@H](C)[C@@H]([C@@H](C)[C@@H](OC)[C@H](C)C(=O)O)O3)O2)O1` [Monensin] here?
The value was 1.2 ± 0.11.

For `CO[C@@H]1C[C@@H](C[C@H]2CC[C@H](C)[C@H]([C@@H](C)C(=O)O)O2)O[C@]2(O[C@](C)([C@H]3CC[C@@](C)([C@@H]4O[C@@H]([C@H]5O[C@@](O)(CO)[C@H](C)C[C@@H]5C)C[C@@H]4C)O3)C[C@H]2C)[C@@H]1C` [Nigericin, nigericin], which “slope of the dose response curve” value is on record?
Its value is 1.4 ± 0.16.

From patent US9549914B2, “Treatment of human cytomegalovirus by modulating Wnt” (priority 2014, dated 2017)
